Measured values from several laboratories, pooled; numbers as filed in NIAID ChemDB.

Shared fields: tests in culture; agent: Mycobacterium tuberculosis

MIC bound comes from a single tested concentration.

SMILES,strain or isolate,endpoint,dose,method,result
O=CN/N=C\c1ccnc2ccccc12,H37Rv,inhibition,6.25 µg/mL,BACTEC,0%
Cc1cc(NCCN(C(C)C)C(C)C)nc(Nc2nc3ccc(Cl)cc3[nH]2)n1,H37Rv,MIC bound,-,BACTEC,>6.25 µg/mL
O=C(O)c1cc(-c2ccc(OCc3c(Cl)cccc3Cl)cc2)sc1NCc1ccccc1Cl,H37Rv,MIC,-,resazurin,60 µM
COC(=O)Cc1cc(Cl)c(Oc2cc(C(OC(C)=O)OC(C)=O)cc(OC)c2OC(C)=O)c([N+](=O)[O-])c1,H37Rv,MIC,-,-,31.25–250 µg/mL
Cc1ccc(C(=O)N/N=C/c2cc3cc(F)ccc3[nH]c2=O)cn1,H37Rv,MIC,-,resazurin / visual reading,50 µg/mL
O=C(Nc1sc(-c2ccc(OCc3c(Cl)cccc3Cl)cc2)cc1C(=O)O)c1ccccc1Cl,H37Rv,MIC,-,resazurin,96 µM
Nc1ccc2nc3ccc(=O)cc-3n(-c3ccccc3)c2c1,H37Rv,MIC bound,-,BACTEC,≤12.5 µg/mL
O=C(COc1ccc(Br)c2c1CCC2)N/N=C/c1cc2cc(F)ccc2[nH]c1=O,H37Rv,MIC,-,resazurin / visual reading,50 µg/mL
CCSN(SCC)C(=S)c1c(C#N)cc([N+](=O)[O-])cc1[N+](=O)[O-],-,MBC,-,-,7.29 µg/mL
Cc1cc(N=Nc2ccc(C(=O)Nc3ccc4cc(S(=O)(=O)O)ccc4c3)cc2)c(N)cc1N,H37Rv,inhibition,12.5 µg/mL,BACTEC,8%
O=[N+]([O-])c1ccccc1Oc1ccccc1O,H37Rv,MIC,-,-,31.25–62.5 µg/mL
COc1c(N2C[C@@H]3C(CN)[C@@H]3C2)c(F)cc2c(=O)c(C(=O)O)cn(C3CC3)c12,-,MIC,-,-,64 µg/mL
CO[C@H]1/C=C/O[C@@]2(C)Oc3c(C)c(O)c4c(=O)c(c5oc6cc(N7CCN(CC(C)C)CC7)cc(=O)c6nc5c4c3=C2O)NC(=O)/C(C)=C\C=C\[C@H](C)[C@H](O)[C@@H](C)[C@@H](O)[C@@H](C)[C@H](OC(C)=O)[C@@H]1C,23 strains (rifampicin-resistant),MIC50,-,-,1.56 µg/mL
C(=N/Nc1ccccc1)/c1cc(C2C3CC4CC(C3)CC2C4)nc2ccccc12,H37Rv,inhibition,6.25 µg/mL,BACTEC,0%
CCCCNCc1ccc(OCCCC)cc1,H37Rv,MIC,-,-,250 µg/mL
COC(=O)c1cc(=O)nc(NNC(C)=O)s1,H37Rv,MIC bound,-,BACTEC,>12.5 µg/mL
COc1c(N2C[C@@H]3C(N)[C@@H]3C2)c(F)cc2c(=O)c(C(=O)O)cn(-c3ccc(F)cc3F)c12,-,MIC,-,-,256 µg/mL
COc1cccc(C(=O)Nc2sc(-c3ccc(OCc4c(Cl)cccc4Cl)cc3)cc2C(=O)O)c1,H37Rv,EC50,-,resazurin,62.13 µM
C=C(C)[C@@H]1CC[C@]2(C)CC[C@]3(C)[C@H](CC[C@@H]4[C@@]5(C)CC[C@@H](O)C(C)(C)[C@@H]5CC[C@]43C)[C@@H]12,H37Rv,MIC90,-,resazurin,>20 µg/mL
Cc1c(F)c(N2CCNC(C)C2)cc2c1c(=O)c(C(=O)O)cn2C1CC1,-,MIC,-,-,1 µg/mL
Cc1cc(O)c2c(c1)C(=O)C(c1c(C)cc3c(c1O)C(=O)C=CC3=O)=CC2=O,H37Rv,MIC,-,-,8 µg/mL
CCCCNCc1ccc(N(CC)CC)cc1,H37Rv,MIC,-,-,250 µg/mL
O=C(CCl)Nc1nc(=O)[nH]s1,H37Rv,MIC bound,-,BACTEC,>12.5 µg/mL
COc1cc(OC(C)=O)cc(Oc2ccc(C(OC(C)=O)OC(C)=O)cc2[N+](=O)[O-])c1OC,H37Rv,MIC,-,-,31.25 µg/mL
COc1c(N2C[C@@H]3C(N)[C@@H]3C2)c(F)cc2c(=O)c(C(=O)O)cn(C3CC3)c12,-,MIC,-,-,64 µg/mL
CCCCNCc1cccc([N+](=O)[O-])c1,H37Rv,MIC,-,-,60 µg/mL
NC(=O)c1cnccn1,ATCC 25618,MIC,-,-,64 µg/mL
COC(=O)C1=C2Nc3ccccc3[C@@]23CCN2C3[C@]3(CCO[C@H]3[C@@]3(CC4C[C@]56CC(=O)O[C@H]5CCN5CC[C@H](C4N(c4ccccc4OC)C3)C56)[C@H]2O)C1,H37Rv,MIC90,-,-,5.2 µg/mL
Cc1cc(O)c2c(c1)C(=O)C=C(c1c(C)cc(O)c3c1C(=O)C=CC3=O)C2=O,H37Rv,MIC,-,-,10 µg/mL
CO[C@@]12[C@H](COC(N)=O)C3=C(C(=O)C(C)=C(N)C3=O)N1C[C@H]1[C@@H]2N1C(=O)/C=C/c1ccccc1,RMP-R,MIC,-,-,0.2 µg/mL
CO[C@H]1/C=C/O[C@@]2(C)Oc3c(C)c(O)c4c(O)c(c(/C=N/N5CCN(C)CC5)c(O)c4c3C2=O)NC(=O)/C(C)=C\C=C\[C@H](C)[C@H](O)[C@@H](C)[C@@H](O)[C@@H](C)[C@H](OC(C)=O)[C@@H]1C,22 strains (rifampicin-susceptible),MIC50,-,-,≤0.05 µg/mL
O=CN/N=C\c1cc(C2C3CC4CC(C3)CC2C4)nc2ccccc12,H37Rv,inhibition,6.25 µg/mL,BACTEC,98%
COc1cc(C(=O)NNC(=O)c2ccc(Cl)c(Cl)c2)cc(OC)c1OC,H37Rv,MIC bound,-,BACTEC,>12.5 µg/mL
CCCCCCC#Cc1cncc(-c2nnc(SCc3cc([N+](=O)[O-])cc([N+](=O)[O-])c3)n2C)c1,-,EC50,-,resazurin,0.34 µM
O=C1c2cc([N+](=O)[O-])cnc2S(=O)(=O)N1c1ccc(Oc2ccccc2)cc1,H37Rv,MIC bound,-,resazurin,>6.25 µg/mL
Cc1c2c(OCCCCN3CCN(c4ncccn4)CC3)nn(C)c(=O)c2c(C)n1-c1ccccc1,H37Rv,EC50,-,-,>12.5 µg/mL
Cc1cc(=O)oc2cc(OCc3ccc(Br)cc3)ccc12,H37Rv,inhibition,1 µM,fluorescence,10.02%
COC(=O)Cc1cc([N+](=O)[O-])c(Oc2ccc(OC)cc2)c([N+](=O)[O-])c1,H37Rv,MIC,-,-,62.5–125 µg/mL
CCCCCCNc1sc(-c2ccc(OCc3c(Cl)cccc3Cl)cc2)cc1C(=O)O,H37Rv,EC50,-,resazurin,55.59 µM
CC(=O)O[C@H]1C[C@@]2(C)[C@@H](C[C@@H](O)[C@H]3[C@@]4(C)CC[C@@H](O)[C@@H](C)[C@@H]4CC[C@@]32C)/C1=C(\CCC=C(C)C)C(=O)O,151 strains (drug-susceptible),MIC90,-,-,≤16 µg/mL
NNC(=O)c1ccccc1NC(=O)CSc1nc2ccccc2s1,H37Rv,inhibition,12.5 µg/mL,BACTEC,3%
CO[C@H]1/C=C/O[C@@]2(C)Oc3c(C)c(O)c4c(O)c(c(/C=N/N5CCN(C)CC5)c(O)c4c3C2=O)NC(=O)/C(C)=C\C=C\[C@H](C)[C@H](O)[C@@H](C)[C@@H](O)[C@@H](C)[C@H](OC(C)=O)[C@@H]1C,H37Rv,MIC,-,-,0.015 µg/mL
O=C1C(=O)c2c(nc3ccccn23)-c2ccccc21,H37Rv,inhibition,6.25 µg/mL,resazurin,97%
Cc1c(Cl)c(=O)oc2cc(OCc3ccc(Br)cc3)ccc12,H37Rv,inhibition,50 µM,fluorescence,3.89%
CO[C@H]1/C=C/O[C@@]2(C)Oc3c(C)c(O)c4c(O)c(c5[nH]cnc5c4c3C2=O)NC(=O)/C(C)=C\C=C\[C@H](C)[C@H](O)[C@@H](C)[C@@H](O)[C@@H](C)[C@H](OC(C)=O)[C@@H]1C,H37Rv,inhibition,6.25 µg/mL,resazurin,101%
COC(=O)/C(=N\O)c1[nH]c2ccccc2c1[C@H]1SC[C@@H](O)C(c2ccc(O)c(OC)c2)(c2ncc[nH]2)S1,H37Rv,inhibition,12.5 µg/mL,-,10%
CCCCC1=NCCc2c1cc1c([nH]c3ccccc31)c2C,H37Rv,MIC bound,-,resazurin,<6.25 µg/mL
CCCCCCCCOc1cncc(-c2nnc(SCc3ccc(Cl)cc3)n2C)c1,-,EC50,-,resazurin,3.5 µM
CC1(C)CC[C@]2(C(=O)O)CC[C@]3(C)C(=CC[C@@H]4[C@@]5(C)C[C@H](O)[C@H](O)[C@@](C)(O)C5=CC[C@]43C)[C@@H]2C1,H37Rv (ATCC 27294),MIC90,-,resazurin,2.5 µg/mL
COc1cc(C(OC(C)=O)OC(C)=O)c([N+](=O)[O-])cc1Oc1cc(C(OC(C)=O)OC(C)=O)cc(OC)c1OC(C)=O,H37Rv,MIC,-,-,250–500 µg/mL
CCCCOC(=O)CNC(=O)c1c2nc3c(C(=O)NCC(=O)OCCCC)ccc(C)c3oc-2c(C)c(=O)c1N,H37Rv,inhibition,12.5 µg/mL,BACTEC,0%
CCCCCCCCc1ccc(-c2nnc(SCc3ccc(Cl)cc3)n2C)cc1,-,EC50,-,resazurin,>200 µM
CCCCCCCCCCCCCCCCOc1nn(C)c(=O)c2c(C)n(CCCC)c(C)c12,H37Rv,EC50,-,-,<12.5 µg/mL
CC(C)CNc1sc(-c2ccc(OCc3c(Cl)cccc3Cl)cc2)cc1C(=O)O,H37Rv,EC50,-,resazurin,34.5 µM
CO[C@H]1/C=C/O[C@@]2(C)Oc3c(C)c(O)c4c(O)c(c(/C=N/N=C/N5CCOCC5)c(O)c4c3C2=O)NC(=O)/C(C)=C\C=C\[C@H](C)[C@H](O)[C@@H](C)[C@@H](O)[C@@H](C)[C@H](OC(C)=O)[C@@H]1C,H37Rv,MIC,-,-,0.02 µg/mL
O=C(O)c1cc(-c2ccc(OCc3c(Cl)cccc3Cl)cc2)sc1NCc1ccc(Cl)cc1,H37Rv,MIC,-,resazurin,30.3 µM
CS1(C)=Nc2c([N+](=O)[O-])cc([N+](=O)[O-])cc2S(=O)(=O)N=1,H37Rv,MIC,-,BACTEC,≥128 µg/mL
CO[C@H]1/C=C/O[C@@]2(C)Oc3c(C)c(O)c4c(O)c(c(/C=N/N=C/N5CCCCC5)c(O)c4c3C2=O)NC(=O)/C(C)=C\C=C\[C@H](C)[C@H](O)[C@@H](C)[C@@H](O)[C@@H](C)[C@H](OC(C)=O)[C@@H]1C,H37Rv,MIC,-,-,0.01 µg/mL
CCCC/C(C)=N/NC(=S)SC,PAS-R,MIC,-,-,6.4 µg/mL
O=C(O)c1cc(-c2ccc(OCc3c(Cl)cccc3Cl)cc2)sc1NCc1ccccc1,H37Rv,MIC,-,resazurin,48.2 µM
CCN(CC)Cc1c(C)nc2cc(N(C)C)ccc2c1Cl,H37Rv,MIC bound,-,BACTEC,>12.5 µg/mL
CCCCCCCCCCCCCCCCn1c(=O)c2c(C)n(CCCC)c(C)c2c(=O)n1C,H37Rv,inhibition,12.5 µg/mL,-,20%
O=c1c2ccccc2c(=O)c2c1cc(Cl)c1[nH]c3c([nH]c12)c(Cl)cc1c(=O)c2ccccc2c(=O)c13,H37Rv,MIC bound,-,BACTEC,>12.5 µg/mL
C=CCNc1sc(-c2ccc(OCc3c(Cl)cccc3Cl)cc2)cc1C(=O)O,H37Rv,MIC,-,resazurin,14.7 µM
Cc1c2c(OCC(O)CN3CCN(c4ccccc4)CC3)nn(C)c(=O)c2c(C)n1-c1ccccc1,H37Rv,inhibition,12.5 µg/mL,-,3%
Cc1c(C#N)c(=O)oc2cc(OCc3ccc(Br)cc3)ccc12,H37Rv,inhibition,50 µM,fluorescence,55.4%
CCN(CC)CCCCNc1ccc(NCCCCN(CC)CC)c2c1C(=O)c1ccccc1C2=O,H37Rv,inhibition,12.5 µg/mL,BACTEC,62%
C(=N\Nc1ccccc1)/c1ccc2ccccc2n1,H37Rv,inhibition,6.25 µg/mL,BACTEC,3%
CO[C@H]1/C=C/O[C@@]2(C)Oc3c(C)c(O)c4c(O)c(c(/C=N/N=C/N(C)Cc5ccccc5)c(O)c4c3C2=O)NC(=O)/C(C)=C\C=C\[C@H](C)[C@H](O)[C@@H](C)[C@@H](O)[C@@H](C)[C@H](OC(C)=O)[C@@H]1C,H37Rv,MIC,-,-,0.04 µg/mL
COc1cc(Cc2nccc3cc(OC)c(OC)cc23)c(C(C)=O)cc1OC,H37Rv,MIC bound,-,BACTEC,>12.8 µg/mL
Cc1c(C#N)c(=O)oc2cc(OCc3ccccc3)ccc12,H37Rv,inhibition,1 µM,fluorescence,1.72%
Fc1cccc(N/N=C\c2cc(C3C4CC5CC(C4)CC3C5)nc3ccccc23)c1,H37Rv,inhibition,6.25 µg/mL,BACTEC,94%
Cc1cc2c(c(O)c1-c1c(C)cc(O)c3c1C(=O)C=CC3=O)C(=O)C=CC2=O,H37Rv,MIC,-,-,10 µg/mL
O=C(On1nnc2ccccc2c1=O)c1ccccc1,H37Rv,MIC bound,-,BACTEC,>12.5 µg/mL
CCCNCc1ccccc1,H37Rv,MIC,-,-,250 µg/mL

A second listing of 8 rows from above:

SMILES,strain or isolate,endpoint,dose,method,result
CCN(CC)Cc1c(C)nc2cc(N(C)C)ccc2c1Cl,H37Rv,MIC bound,-,BACTEC,>12.5 µg/mL
COc1cccc(C(=O)Nc2sc(-c3ccc(OCc4c(Cl)cccc4Cl)cc3)cc2C(=O)O)c1,H37Rv,EC50,-,resazurin,62.13 µM
O=C1c2cc([N+](=O)[O-])cnc2S(=O)(=O)N1c1ccc(Oc2ccccc2)cc1,H37Rv,MIC bound,-,resazurin,>6.25 µg/mL
NNC(=O)c1ccccc1NC(=O)CSc1nc2ccccc2s1,H37Rv,inhibition,12.5 µg/mL,BACTEC,3%
CCCNCc1ccccc1,H37Rv,MIC,-,-,250 µg/mL
CCCCCCNc1sc(-c2ccc(OCc3c(Cl)cccc3Cl)cc2)cc1C(=O)O,H37Rv,EC50,-,resazurin,55.59 µM
O=CN/N=C\c1cc(C2C3CC4CC(C3)CC2C4)nc2ccccc12,H37Rv,inhibition,6.25 µg/mL,BACTEC,98%
CO[C@H]1/C=C/O[C@@]2(C)Oc3c(C)c(O)c4c(O)c(c(/C=N/N5CCN(C)CC5)c(O)c4c3C2=O)NC(=O)/C(C)=C\C=C\[C@H](C)[C@H](O)[C@@H](C)[C@@H](O)[C@@H](C)[C@H](OC(C)=O)[C@@H]1C,22 strains (rifampicin-susceptible),MIC50,-,-,≤0.05 µg/mL

ECn: concentration that inhibits the pathogen or its effect by n%. Percent inhibition refers to the dose given; in toxicity tests it is the harm to the cells. Conditions beyond the fields shown may differ between rows. An empty or dashed field is not shown. Two numbers with a dash give a range or band. A number after MIC or MFC names an inhibition level or a share of isolates.